system: Nc1ncnc2c1ncn2[C@@H]1O[C@H](COP(=O)(O)OP(=O)(O)OP(=O)(O)OP(=O)(O)OC[C@H]2O[C@@H](n3cnc4c(N)ncnc43)[C@H](O)[C@@H]2O)[C@@H](O)[C@H]1O; assay: purified protein; conditions: Mg2+-dependent, heading states optimal conditions (optimum pH 7.0, 45 °C), 0.1 mg/mL enzyme

Substance	Km
Sp-yqeK (Streptococcus pyogenes; F180A)	1987 ± 651.3617 µM
Sp-yqeK (Streptococcus pyogenes; L172A)	1009 ± 346.4237 µM
Sp-yqeK (Streptococcus pyogenes; T183A)	1023.7566 ± 328.1 µM
